Test results from patent publication US20090281054A1, “COMPOSITIONS AND METHODS COMPRISING CAPURAMYCIN ANALOGUES” (priority 2008, published 2009).
Like-named read-outs stand apart in the source and are kept apart here.

Tested on: intracellular Mycobacterium tuberculosis
Details: Day 0 RLU 255, Control Day 7 1856

| SMILES | Mean RLU Day 7 (unconjugated SQ997 8 μg/mL) [RLU] | Mean RLU Day 7 (unconjugated SQ997 16 μg/mL) [RLU] | Mean RLU Day 7 (INH 0.125) [RLU] |
| --- | --- | --- | --- |
| CO[C@H]1[C@@H](O)[C@H](n2ccc(=O)[nH]c2=O)O[C@@H]1[C@@H](O[C@H]1OC(C(=O)N[C@H]2CCC[C@@H](C)NC2=O)=C[C@H](O)[C@@H]1O)C(N)=O [SQ997] | 1080 | 410 |  |
| NNC(=O)c1ccncc1 [INH, isoniazid, reference compound] |  |  | 4 |
